Data as given in patent US20250376472A1, “3-(PHENYLSULFONYL)-[1,2,3]TRIAZOLO[1,5A]QUINAZOLIN-5(4H)-ONE DERIVATIVES” (priority 2022, published 2025).

Protein sequences, listed by entry. Tags and fused reporters are not part of them.
UniProt P0A0I7, whole entry: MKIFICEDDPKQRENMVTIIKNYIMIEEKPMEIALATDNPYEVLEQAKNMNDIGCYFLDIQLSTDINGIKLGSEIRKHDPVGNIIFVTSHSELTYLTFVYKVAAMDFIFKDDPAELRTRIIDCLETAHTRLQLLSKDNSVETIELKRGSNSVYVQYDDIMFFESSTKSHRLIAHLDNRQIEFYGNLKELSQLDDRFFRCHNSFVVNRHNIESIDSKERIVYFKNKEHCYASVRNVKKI

Target: AgrA (Staphylococcus aureus, UniProt P0A0I7)
Conditions: for Ratio IC50 (in presence of HSA)/IC50 (in absence of HSA): 40 mg/mL HSA versus no HSA; for IC50 at 40 mg/mL HSA: LB medium supplemented with human serum albumin 40 mg/mL; for IC50 without HSA: LB medium, no human serum albumin, 18 hours incubation

SMILES: Cc1ccc(S(=O)(=O)c2nnn3c2[nH]c(=O)c2ccc(N4CCN(CCC(=O)N5CCCCC5)CC4)cc23)c(C)c1
- Ratio IC50 (in presence of HSA)/IC50 (in absence of HSA): +++ (+++: ratio ≤ 25)
- IC50 at 40 mg/mL HSA: ++ (++: 10 μg/mL < IC50 ≤ 50 μg/mL)
- IC50 without HSA: ++ (++: 1 μg/mL < IC50 ≤ 5 μg/mL)

SMILES: Cc1ccc(S(=O)(=O)c2nnn3c2[nH]c(=O)c2ccc(N4CCN(C(C)(C)C(=O)N5CCOCC5)CC4)cc23)c(C)c1
- Ratio IC50 (in presence of HSA)/IC50 (in absence of HSA): +++ (+++: ratio ≤ 25)
- IC50 at 40 mg/mL HSA: +++ (+++: IC50 ≤ 10 μg/mL)
- IC50 without HSA: +++ (+++: IC50 ≤ 1 μg/mL)

SMILES: COCCNC(=O)C(C)(C)N1CCN(c2ccc3c(=O)[nH]c4c(S(=O)(=O)c5ccc(C)cc5C)nnn4c3c2)CC1
- Ratio IC50 (in presence of HSA)/IC50 (in absence of HSA): +++ (+++: ratio ≤ 25)
- IC50 at 40 mg/mL HSA: +++ (+++: IC50 ≤ 10 μg/mL)
- IC50 without HSA: +++ (+++: IC50 ≤ 1 μg/mL)
